# Values quoted from earlier work in patent publication US8431615B2, “Dose forms” (priority 2004, dated 2013).
# System: A156V/T NS3 protease
# Settings: enzyme Ki or 2-day replicon IC50; cited from earlier work
structure (smiles),measurement,value
CCC[C@H](NC(=O)[C@@H]1[C@H]2CCC[C@H]2CN1C(=O)[C@@H](NC(=O)[C@@H](NC(=O)c1cnccn1)C1CCCCC1)C(C)(C)C)C(=O)C(=O)NC1CC1 [VX-950],resistance to VX-950 conferred by A156V/T mutations compared to the wild type protease,Increased resistance
